Converted amounts (≈) assume the structure as drawn.

The values below come from patent publication EP0341019A2, “Polyether antibiotic” (priority 1988, dated 1989).

The subject of the assay is Staphylococcus aureus S13E. The assay is described as follows: microbe, parasite or virus in culture.

`CC[C@@H](O)[C@]1(C)C[C@H](C)[C@@](O)([C@H]2C[C@H](C)[C@H]([C@]3(C)C[C@@H](O[C@H]4CC[C@H](OC)[C@@H](C)O4)[C@H]([C@]4(C)CC[C@@]5(O[C@H]([C@@H](C)[C@@H](OC)[C@H](C)C(=O)O)[C@H](C)[C@@H](OC)[C@H]5C)O4)O3)O2)O1` [Example A82810]: the MIC was 1 µg/mL (≈ 1.19 µM).
